Results from ChEMBL document CHEMBL1255481, “The M230L nonnucleoside reverse transcriptase inhibitor resistance mutation in HIV-1 reverse transcriptase impairs enzymatic function and viral replicative capacity” (Antimicrob Agents Chemother, 2010).

Experiments:
[1] = target: T1, Human immunodeficiency virus type 1 reverse transcriptase (Human immunodeficiency virus 1, UniProt Q72547, M230L); assay: Inhibition of RNA-dependent DNA polymerase activity of HIV1 subtype B reverse transcriptase M230L mutant by filter-based filtration assay
[2] = target: T2, Human immunodeficiency virus type 1 reverse transcriptase (Human immunodeficiency virus 1, UniProt Q72547); assay: Inhibition of DNA-dependent DNA polymerase activity of wild type HIV1 subtype B reverse transcriptase by gel-based primer extension assay
[3] = target: T1, Human immunodeficiency virus type 1 reverse transcriptase; assay: Inhibition of DNA-dependent DNA polymerase activity of HIV1 subtype B reverse transcriptase M230L mutant by gel-based primer extension assay
[4] = target: T2, Human immunodeficiency virus type 1 reverse transcriptase; assay: Inhibition of RNA-dependent DNA polymerase activity of wild type HIV1 subtype B reverse transcriptase by filter-based filtration assay

What does the source list for `Cc1cc(C#N)cc(C)c1Oc1nc(Nc2ccc(C#N)cc2)nc(N)c1Br` [ETRAVIRINE]?
IC50 [1]: 696 nM; IC50 [2]: 126 nM; IC50 [3]: 1320 nM; IC50 [4]: 68 nM
